From PubChem BioAssay AID493005 (National Center for Advancing Translational Sciences (NCATS), 2010)
Only a part is listed here, and it is no random draw. Some salts and complexes are drawn in separate pieces, as the source files them; their charges need not balance. Calls of active or inactive are those of the source. Calls follow the shape of the dose curve; as a rule, active = well fitted inhibition curve with a large enough effect in the main read-out, with a control signal flat (not every such curve was filed as active); inconclusive = small, poorly fitted or top-dose-only effect, or effect the other way, or a change in a side signal; inactive = no such curve, though single readings can be large or run the other way.

Protein sequences, listed by entry. Tags and fused reporters are not part of them.
UniProt Q99816, whole entry: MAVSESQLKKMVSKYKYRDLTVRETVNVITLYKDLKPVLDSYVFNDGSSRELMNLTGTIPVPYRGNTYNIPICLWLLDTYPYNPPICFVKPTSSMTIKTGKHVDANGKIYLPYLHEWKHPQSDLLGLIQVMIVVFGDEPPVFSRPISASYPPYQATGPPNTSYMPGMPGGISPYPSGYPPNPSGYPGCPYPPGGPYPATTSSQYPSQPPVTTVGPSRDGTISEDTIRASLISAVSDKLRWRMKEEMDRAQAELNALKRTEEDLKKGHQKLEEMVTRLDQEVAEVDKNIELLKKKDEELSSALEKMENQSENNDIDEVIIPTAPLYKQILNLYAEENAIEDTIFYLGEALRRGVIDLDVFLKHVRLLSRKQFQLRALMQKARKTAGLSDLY

Target: Tumor susceptibility gene 101 protein (Homo sapiens) (UniProt Q99816)
Assay: qHTS Assay for Iinhibitors of HIV-1 Budding by Blocking the Interaction of PTAP/TSG101; also: % of control where 0% means no effect
Details: Fluorescence polarization, FITC-PTAP peptide / Tsg101 binding; at 115 µM (top of the series)
Source text: NIH Molecular Libraries Probe Production Network [MLPCN] NIH Chemical Genomics Center [NCGC] MLPCN Grant: 1 R03 MH087464-01A1 PI Name: Dr. Eric Freed, NCI NCGC Assay Overview: Stages of the HIV-1 replication cycle, specifically virus assembly and release, provide underexploited targets for the development of novel antiviral inhibitors. The late stages of HIV-1 replication are mediated by the Gag precursor protein, Pr55Gag. Expression of Pr55Gag is both necessary and sufficient for the production of virus-like particles from Gag-expressing cells. The Gag protein hijacks key host proteins involved in endocytic machinery of the host cell to promote endosomal processing and viral budding. The budding process requires a direct interaction between a […] (PTAP) motif in the p6 domain of Gag and the cellular endosomal sorting protein known as Tsg101. In this way, the Gag PTAP motif promotes the host cells to recruit viral particles to the plasma membrane where the new viral particles are released, effectively turning the host cells into viral factories. A fluorescence anisotropy assay has been developed to quantitatively measure the PTAP-Tsg101 interaction which can be used to screen for inhibitors of this interaction.
NCGC Assay Protocol Summary: Two uL of the Tsg101 binding domain in buffer (10 mM HEPES pH 7.5; 0.15 M NaCl, 0.01% Tween 20; 3 mM EDTA;0.1 mM TCEP) was dispensed into Greiner black MB 1536-well plates (final concentration 10 uM). Then, 23 nL of compounds or DMSO were delivered to each well using a pin tool. Finally, 2 uL of a FITC-labeled peptide containing the PTAP motif (1) in the same buffer was dispensed (50 nM final concentration) and the binding was allowed to proceed for 20 min. at r.t. Fluorescent polarization was determined using FITC excitation and polarized emission filters on a Perkin Elmer Viewlux. Keywords: Tsg101, PTAP, Gag, HIV, fluorescent polarization, MLSMR, MLPCN, NIH Roadmap, qHTS, NCGC

Row | Structure (SMILES) | activity change, negative = inhibition
1 | CCOC(=O)C(CC)C1=NC(C)(C)Cc2ccccc21.O=[N+]([O-])c1cc([N+](=O)[O-])c(O)c([N+](=O)[O-])c1 (stereo not given) | inactive: -5.34%
2 | c1ccc(CN2CCC(Nc3ccccc3)CC2)cc1 | inactive: -3.75%
3 | Cc1cc(N(CCCl)CCCl)ccc1C=O | inactive: -2.68%
4 | CCCN1CCC(Nc2cc(OC)cc(OC)c2)CC1 | inactive: 0.176%
5 | CN(C)C1(CNC(=O)c2cccc(C#N)c2)CCCCC1 | inactive: -1.3%
6 | O=C(NCC1(N2CCCCC2)CCCCC1)c1ccc(OC(F)F)cc1 | inactive: 0.467%
7 | O=C(NCC1(N2CCCCC2)CCCCC1)c1cccc([N+](=O)[O-])c1 | inactive: -0.906%
8 | CSc1ccc(C(=O)NCC2(N3CCOCC3)CCCCC2)cc1 | inactive: -8.87%
9 | CCN1CCC(Nc2ccc(Cl)cc2)CC1 | inactive: 0.343%
10 | N#CC1(Nc2ccccc2)CCN(CCc2ccccc2)CC1 | inactive: -1.28%
11 | O=C(NCC1(N2CCCCC2)CCCCC1)c1cccc(C(F)(F)F)c1 | inactive: -2.68%
12 | O=[N+]([O-])c1cc([N+](=O)[O-])c(NCC2CCS(=O)(=O)C2)c([N+](=O)[O-])c1 (stereo not given) | inactive: 0.0863%
13 | CC(C)c1ccc(C(=O)NCC2(N3CCOCC3)CCCCC2)cc1 | inactive: -0.258%
14 | COc1ccc(NC2CCN(C(=O)OC(C)(C)C)CC2)cc1 | inactive: -3.68%
15 | CN1CCN(CCOC(=O)C(O)(c2ccccc2)c2ccccc2)CC1 | inactive: -4.5%
16 | O=C(NCC1(N2CCOCC2)CCCCC1)c1cc(=O)[nH]c2ccccc12 | inactive: -1.23%
17 | COc1cc(C(=O)NCC2(N3CCCCC3)CCCCC2)ccc1OC(F)F | inactive: -0.937%
18 | COc1ccc(CN(CCCl)CCCl)cc1Cl | inactive: -4.17%
19 | CN(C)c1cccc(C(=O)NCC2(N3CCCCC3)CCCCC2)c1 | inactive: 0.723%
20 | O=[N+]([O-])c1cc([N+](=O)[O-])c(OC2CCCCC2O)c([N+](=O)[O-])c1 (stereo not given) | inactive: -7.19%
21 | CC(C)c1ccc(NC2CCN(C(=O)OC(C)(C)C)CC2)cc1 | inactive: -0.303%
22 | COc1cc(OC)c(C(=O)NCC2(N(C)C)CCCCC2)cc1OC | inactive: -5.78%
23 | O=C(NCC1(N2CCOCC2)CCCCC1)c1cc(F)c(F)cc1Cl | inactive: 0.254%
24 | CN1CCC(Nc2cccc(F)c2)CC1 | inactive: -0.487%
25 | COc1ccc2c(c1O)-c1c(O)c(OC)cc3c1[C@H](C2)[N+](C)(C)CC3.O=[N+]([O-])c1cc([N+](=O)[O-])c([O-])c([N+](=O)[O-])c1[O-] | inactive: -4.82%
